A mixed list of measured activities; the numbers were collected in NIAID ChemDB.

Common to all: growth or infection tests; species: Hepatitis C virus; endpoint: EC50

Rows are shuffled and stem from different studies.

SMILES | strain or isolate | method | cells | result
CS(=O)(=O)NC(=O)c1c(-c2ccc[nH]c2=O)c2c3ccoc3ccc2n1Cc1ccccc1F |  | replicon |  | >1.5 µM
CC1CCC(C(=O)N(CC2CCOCC2)c2cc(-c3ccc(-c4cc5ncccn5n4)cc3)sc2C(=O)O)CC1 | 1b | replicon / ELISA |  | 0.001–0.0049 µM
Cc1cnc(C(=O)Nc2ccc(-c3cc(N(C(=O)C4CCC(C)CC4)C(C)C)c(C(=O)O)s3)cc2)cn1 | 1b | replicon |  | <0.5 µM
CCOCCN(C(=O)C1CCC(C)CC1)c1cc(-c2ccc(-c3cc4ncccn4n3)cc2)sc1C(=O)O | 1a | replicon / ELISA |  | 0.005–0.0099 µM
CC1CCC(C(=O)N(CC2CC2)c2cc(-c3ccc(NC(=O)c4cnccn4)cc3)sc2C(=O)O)CC1 | 1a | replicon |  | <0.5 µM
CC1CCC(C(=O)N(CC2CCOCC2)c2cc(-c3ccc(-c4cn5ccsc5n4)cc3)sc2C(=O)O)CC1 | 1b | replicon / ELISA |  | 0.001–0.0049 µM
O=C(Nc1cccc(-c2cc(-c3ccccc3C(F)(F)F)no2)c1)C(Cl)Cl |  | replicon |  | ≤10 µM
C=C[C@@H]1C[C@]1(NC(=O)[C@@H]1C[C@@H](Oc2cc(-c3ccccc3)nc3cc(OC)ccc23)CN1C(=O)[C@@H](NC(=O)OC(C)(C)C)C(C)(C)C)C(=O)NS(=O)(=O)c1ccc(NC(C)=O)cc1 | 1b | replicon | Huh7 | <0.5 µM
CC(C)(C)C(=O)OCn1cccc(-c2c(C(=O)O)n(Cc3cc4ccccc4nc3Cl)c3cc(F)c4ccoc4c23)c1=O |  | replicon |  | <0.5 µM
COc1cc2c(=O)c(-c3nnc(Cc4ccc(Cl)cc4)o3)cn(Cc3ccc(Cl)cc3)c2cc1OC | 1b | replicon |  | >10 µM
O=C(O)c1c(-c2ccc[nH]c2=O)c2c3ccoc3ccc2n1Cc1cc(F)ccc1F |  | replicon |  | >1.5 µM
O=C(O)c1ccccc1-c1cc(-c2cccc(NC(=O)C(Cl)Cl)c2)on1 |  | replicon |  | >10 µM
CC(C)(c1ccc(F)cc1)c1nc(-c2cn(Cc3ccc(C(F)(F)F)cc3)c3cc(N4CCNC(=O)C4)c(F)cc3c2=O)no1 | 1b | replicon |  | <0.5 µM
CC1(C)CC(=O)C2=C(C1)Nc1c(O)cccc1N(C(=O)c1cocn1)C2c1ccc(OCc2ccccc2)cc1F | 1b | luciferase / reporter gene / replicon |  | 0.48 µM
NC(=O)c1ccc(F)c(Cn2c(C(=O)NS(=O)(=O)C3CC3)c(-c3ccc[nH]c3=O)c3c4occc4c(F)cc32)c1 |  | replicon |  | <0.5 µM
C=C[C@@H]1C[C@]1(NC(=O)[C@@H]1C[C@@H](Oc2cc(-c3ccccc3)nc3cc(OC)ccc23)CN1C(=O)[C@@H](NC(=O)OC(C)(C)C)C(C)(C)C)C(=O)NS(=O)(=O)CCC | 1b | replicon | Huh7 | <0.5 µM
Cc1cc(OCCN2CCOCC2)cc(C)c1-c1cc(-c2cccc(NC(=O)C(Cl)Cl)c2)on1 |  | replicon |  | ≤10 µM
CN(C)c1cc2c(cc1F)c(=O)c(-c1noc(C(C)(C)c3ccccc3)n1)cn2Cc1ccc(C(F)(F)F)cc1 | 1b | replicon |  | <2 µM
CC1CCC(C(=O)N(c2cc(-c3ccc(NC(=O)c4ccccn4)s3)sc2C(=O)O)C(C)C)CC1 | 1b | replicon |  | <0.5 µM
COc1cccc(C)c1-c1cc(-c2cccc(NC(=O)C(Cl)Cl)c2)on1 |  | replicon |  | ≤10 µM
O=C(O)c1sc(-c2ccc(-c3cc4ncccc4o3)cc2)cc1N(C(=O)C1CCC(C(F)(F)F)CC1)C1CCOCC1 | 1b | replicon / ELISA |  | 0.01–0.049 µM
COCC(C)N(C(=O)C1CCC(C(F)(F)F)CC1)c1cc(-c2ccc(NC(=O)c3cscn3)cc2)sc1C(=O)O | 1b | replicon |  | <0.5 µM
CN1CCN(c2cc3c(cc2F)c(=O)c(-c2nnc(Cc4ccccc4)o2)cn3Cc2ccc(C(F)(F)F)cc2F)CC1 | 1b | replicon |  | <2 µM
COCCN(C(=O)C1CCC(C(F)(F)F)CC1)c1cc(-c2ccc(-c3cc4ncccn4n3)cc2)sc1C(=O)O | 1b | replicon / ELISA |  | 0.05–0.099 µM
CC1CCC(C(=O)N(c2cc(-c3ccc(NC(=O)c4c(F)cccc4F)cc3)sc2C(=O)O)C(C)C)CC1 | 1a | replicon |  | <0.5 µM
CC1(C)CC(=O)C2=C(C1)Nc1c(O)cccc1N(C(=O)c1ccc(C(N)=O)cc1)C2c1ccc(OCc2ccccc2)cc1Cl | 1b | luciferase / reporter gene / replicon |  | 8.54 µM
CCCCn1c(=O)c2ccccc2c2cc(C(O)(C(F)(F)F)C(F)(F)F)c3c(c21)OCO3 | 1b | PCR | #50-1 | 0.97 µM
CCOCCN(C(=O)C1CCC(C)CC1)c1cc(-c2ccc(-c3cn4ccsc4n3)cc2)sc1C(=O)O | 1a | replicon / ELISA |  | 0.01–0.049 µM
CS(=O)(=O)NC(=O)c1c(-c2ccc[nH]c2=O)c2c3c(ccc2n1Cc1cc(F)ccc1F)CCC3 |  | replicon |  | 0.5–1.5 µM
CC(C)C(=O)N1c2cccc(O)c2NC2=C(C(=O)CC(C)(C)C2)C1c1ccc(OCc2cccc(F)c2F)cc1F | 1b | luciferase / reporter gene / replicon |  | 4.54 µM
COC(=O)c1cccc(Cn2c(C(=O)NS(C)(=O)=O)c(-c3ccc[nH]c3=O)c3c4ccccc4ccc32)c1 |  | replicon |  | 1–10 µM
CN(C)CCN(C)c1cccc(Cl)c1-c1cc(-c2cccc(NC(=O)C(Cl)Cl)c2)on1 |  | replicon |  | ≤10 µM
CC(C)(c1ccccc1)c1noc(-c2cn(Cc3ccc(C(F)(F)F)cc3)c3cc(N4CCOCC4)c(F)cc3c2=O)n1 | 1b | replicon |  | >10 µM
CN(C)S(=O)(=O)NC(=O)c1c(-c2ccc[nH]c2=O)c2c3occc3ccc2n1Cc1cc2ccccc2nc1Cl |  | replicon |  | <0.5 µM
O=C(Nc1cccc(-c2cc(-c3c(Cl)cccc3C3CC3)no2)c1)C(Cl)Cl |  | replicon |  | ≤10 µM
COc1cc2c(=O)c(-c3noc(Cc4ccc(C)cc4)n3)cn(Cc3ccc(Cl)cc3)c2cc1OC | 1b | replicon |  | >10 µM
NC(=O)COc1ccc2c(c1)S(=O)(=O)N=C(c1c(O)c3cc(F)ccc3n(CCC3CC3)c1=O)N2 | 1b 45970 | replicon |  | 0.045 µM
C=C[C@@H]1C[C@]1(NC(=O)[C@@H]1C[C@@H](Oc2cc(-c3ccccc3)nc3cc(OC)ccc23)CN1C(=O)[C@@H](NC(=O)OC(C)(C)C)C(C)(C)C)C(=O)NS(=O)(=O)C1CCCCC1 | 1b | replicon | Huh7 | <0.5 µM
CC1CCC(C(=O)N(c2cc(-c3ccc(-c4cc5ncccc5o4)cc3)sc2C(=O)O)C2CCOCC2)CC1 | 1b | replicon / ELISA |  | <0.001 µM
C=CC1CC1(NC(=O)OC(C)(C)C)C(=O)N1C[C@H](Oc2cc(-c3ccccc3)nc3cc(OC)ccc23)C[C@H]1C(=O)N[C@]1(C(=O)NS(=O)(=O)C2CC2)C[C@H]1C=C | 1b | replicon | Huh7 | <0.5 µM
CC(=O)N1c2cccc(O)c2NC2=C(C(=O)CC(C)(C)C2)C1Cc1ccc(Cl)cc1Cl | 1b | luciferase / reporter gene / replicon |  | 12.89 µM
C=C[C@@H]1C[C@]1(NC(=O)[C@@H]1C[C@@H](Oc2cc(-c3ccccc3)nc3cc(OC)ccc23)CN1C(=O)[C@@H](NC(=O)OC(C)(C)C)C1CCCC1)C(=O)NS(=O)(=O)C1CCC1 | 1b | replicon | Huh7 | <0.5 µM
COCCN(C(=O)C1CCC(C)CC1)c1cc(-c2ccc(-c3cn4ccsc4n3)cc2)sc1C(=O)O | 1a | replicon / ELISA |  | 0.01–0.049 µM
CC1(C)CC(=O)C2=C(C1)Nc1c(O)cccc1N(C(=O)c1ccccc1F)C2c1ccc(OCc2ccccc2)cc1F | 1b | luciferase / reporter gene / replicon |  | 12.25 µM
C=C[C@@H]1C[C@]1(NC(=O)[C@@H]1C[C@@H](Oc2cc(-c3ccccc3)nc3cc(OC)ccc23)CN1C(=O)[C@@H](NC(=O)OC(C)(C)C)C(C)(C)C)C(=O)NS(=O)(=O)c1ccc(Br)cc1 | 1b | replicon | Huh7 | <0.5 µM

An empty or dashed field is not shown. ECn: concentration that inhibits the pathogen or its effect by n%. Two numbers with a dash give a range or band.